# Reference: paper PMC5709419, “Fine control of metal concentrations is necessary for cells to discern zinc from cobalt”
# Legend:
# [1] = molecular target: T1, Zur (Salmonella enterica sv. Typhimurium SL1344) (UniProt A0A0H3NVF0); assay: fluorescence anisotropy; conditions: apo (structural Zn only), 5 mM EDTA, printed as >=; 10 nM probe, 60 mM NaCl, 240 mM KCl, 10 mM HEPES pH 7.0, anaerobic; temperature not stated; recombinant protein; label: 5' HEX on strand 1
# T1 sequence (looked up, limits assumed): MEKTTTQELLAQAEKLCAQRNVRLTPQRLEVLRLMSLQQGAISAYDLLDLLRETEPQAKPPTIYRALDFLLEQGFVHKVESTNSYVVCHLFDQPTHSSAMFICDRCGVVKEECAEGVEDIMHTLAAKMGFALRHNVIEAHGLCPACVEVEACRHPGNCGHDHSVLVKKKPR
# [2] = molecular target: T2, RcnR (Salmonella enterica sv. Typhimurium SL1344) (UniProt Q7CPV3); assay: fluorescence anisotropy; conditions: 10 nM probe, 60 mM NaCl, 240 mM KCl, 10 mM HEPES pH 7.0, anaerobic, temperature not stated, recombinant protein, label: 5' HEX on strand 1
# T2 sequence (looked up, limits assumed): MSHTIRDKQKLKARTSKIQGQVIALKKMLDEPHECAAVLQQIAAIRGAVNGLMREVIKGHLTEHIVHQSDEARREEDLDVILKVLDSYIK
sequence,measurement,setting,value
TAGAATGTTATAATATCACATTTCACACATTCA (double strand) [znuAPro],Kd,[1],> 27 µM
TACTCCCCCCCAGTATAGAATACTACCCCCCAGTA (double strand) [rcnAPro],Kd,"[2]; Zn(II)-RcnR, 1.2 eq ZnCl2, printed as >=, >=90-fold weaker than apo",> 13 µM
same,binding result,"[2]; apo, 5 mM EDTA, titrated here, Kd only from earlier paper",binds

# For at least one entry, the source does not settle the construct or the ends of the probe. For part of these data: At least one verdict was read from the data and is not stated in words by the source. Protein sequences can lack the tags named with them.
